{
  "source": "PubChem BioAssay AID1159583",
  "about": "(ICCB-Longwood Screening Facility, Harvard Medical School, 2016)",
  "note": "This is a selection; strong and weak results do not stand in their true shares. Some salts and complexes are drawn in separate pieces, as the source files them; their charges need not balance. Calls of active or inactive are those of the source. Cut-off read from the data, not from the text of the source: active = fluorescence inhibition mostly above about 23% (no sharp cut-off); inactive = mostly below about 17%.",
  "data": [
    {"assay": "hypoxia reporter signal reduction in M. tuberculosis – fluorescence, absorbance growth readout, primary screen (AID 1159583)", "conditions": "M. tuberculosis hypoxia-regulated fluorescent reporter, active compounds read high, concentration not given here", "values": [
      {"smiles": "NC(=O)Nc1ccc([As](=O)(O)O)cc1", "fluorescence inhibition": "inactive: 3.47%"},
      {"smiles": "O=C(O)COc1ccc([As](=O)(O)O)cc1[N+](=O)[O-]", "fluorescence inhibition": "inactive: 3.17%"},
      {"smiles": "Nc1ccccc1[As](=O)(O)c1ccccc1", "fluorescence inhibition": "inactive: -5.07%"},
      {"smiles": "O=P(Nc1nccs1)(Oc1ccccc1)Oc1ccccc1", "fluorescence inhibition": "inactive: -3.69%"},
      {"smiles": "O=P(Nc1nccs1)(c1ccccc1)c1nc2ccccc2s1", "note": "(centres undefined)", "fluorescence inhibition": "inactive: 0.833%"},
      {"smiles": "O=C(O)c1cccc(Nc2c([N+](=O)[O-])cc([N+](=O)[O-])cc2[N+](=O)[O-])c1", "fluorescence inhibition": "inactive: 19.1%"},
      {"smiles": "CCOP1(=S)c2c(C)nn(CCC#N)c2N=C(c2ccccc2F)N1C", "note": "(centres undefined)", "fluorescence inhibition": "inactive: -4.52%"},
      {"smiles": "CCOP(=O)(Nc1cccc2ccccc12)OCC", "fluorescence inhibition": "inactive: 6.81%"},
      {"smiles": "CCCOP(=S)(Nc1nc(N)cc(=O)[nH]1)OCCC", "fluorescence inhibition": "inactive: 11.3%"},
      {"smiles": "Cc1ccc(NCCc2c([N+](=O)[O-])cc([N+](=O)[O-])cc2[N+](=O)[O-])cc1", "fluorescence inhibition": "inactive: 0.606%"},
      {"smiles": "Cc1cc(C)cc(OP(C)(=O)Nc2ccccn2)c1", "note": "(centres undefined)", "fluorescence inhibition": "inactive: 6.57%"},
      {"smiles": "CP(=O)(Nc1cccc(Br)c1)Oc1ccccc1", "note": "(centres undefined)", "fluorescence inhibition": "inactive: 7.44%"},
      {"smiles": "CC1C=CCP(=O)(Oc2ccccc2)O1", "note": "(centres undefined)", "fluorescence inhibition": "inactive: -1.93%"},
      {"smiles": "CCOC(=O)c1ccc(NP(C)(=O)Oc2cc(C)cc(C)c2)cc1", "note": "(centres undefined)", "fluorescence inhibition": "inactive: 3.2%"},
      {"smiles": "Cc1cc(C)cc(OP(C)(=O)Nc2ccc(C)cc2C)c1", "note": "(centres undefined)", "fluorescence inhibition": "inactive: 0.465%"},
      {"smiles": "O=[As](O)(c1cccc(O)c1)c1cccc(O)c1", "fluorescence inhibition": "inactive: 4.4%"},
      {"smiles": "COc1ccccc1OP(C)(=O)Nc1cccc(Br)c1", "note": "(centres undefined)", "fluorescence inhibition": "inactive: 10.1%"},
      {"smiles": "CS(=O)(=O)c1ccc(Cl)c(NC(=O)COC(=O)C(O)(c2ccccc2)c2ccccc2)c1", "fluorescence inhibition": "inactive: 15%"},
      {"smiles": "O=[As](O)(O)c1cccnc1", "fluorescence inhibition": "inactive: 6.79%"},
      {"smiles": "COc1cc(C(=O)NCC2(N3CCOCC3)CCCCC2)cc(Cl)c1OC(C)C", "fluorescence inhibition": "inactive: -1.14%"},
      {"smiles": "O=C(OC1CN2CCC1CC2)c1ccc(Cl)cc1", "note": "(centres undefined)", "fluorescence inhibition": "inactive: -2.79%"},
      {"smiles": "CCC(CO)(C(=O)OC1CN2CCC1CC2)c1ccccc1", "note": "(centres undefined)", "fluorescence inhibition": "inactive: 2.82%"},
      {"smiles": "COc1cc(I)ccc1[As](=O)(O)O", "fluorescence inhibition": "inactive: 11.2%"},
      {"smiles": "COc1ccc2nc(NP(=O)(c3ccccc3)c3ccccc3)sc2c1", "fluorescence inhibition": "inactive: 9.18%"},
      {"smiles": "O=P1(N(CCCl)CCCl)Nc2ccccc2N1", "fluorescence inhibition": "inactive: 11.7%"},
      {"smiles": "Cc1cc(=O)[nH]c(N[N+](=O)[O-])n1", "fluorescence inhibition": "inactive: -3.26%"},
      {"smiles": "CCN(CC)CCCOC(=O)C(O)(c1ccccc1)c1ccccc1", "fluorescence inhibition": "inactive: 6.29%"},
      {"smiles": "Cc1c2c(nc3ccccc13)SC(C(Cl)Cl)C2", "note": "(centres undefined)", "fluorescence inhibition": "inactive: 2%"},
      {"smiles": "Cc1cc(C)cc(OP(C)(N)=O)c1", "note": "(centres undefined)", "fluorescence inhibition": "inactive: 6.68%"},
      {"smiles": "COc1ccc(OP(C)(=O)Nc2cccc(F)c2)cc1", "note": "(centres undefined)", "fluorescence inhibition": "inactive: 6.58%"},
      {"smiles": "O=[N+]([O-])c1cc([N+](=O)[O-])c(-c2ccn[nH]2)s1", "fluorescence inhibition": "inactive: 40.9%"},
      {"smiles": "CC(C)NC(=O)NP(=O)(Oc1ccccc1)Oc1ccccc1", "fluorescence inhibition": "inactive: -0.864%"},
      {"smiles": "COc1ccccc1OP(C)(=O)Nc1cc(Cl)ccc1C", "note": "(centres undefined)", "fluorescence inhibition": "inactive: 12.8%"},
      {"smiles": "O=C(OC1CN2CCC1CC2)c1cccc2[nH]cnc12", "note": "(centres undefined)", "fluorescence inhibition": "inactive: 19.3%"},
      {"smiles": "Cc1ccc(NP(C)(=O)Oc2ccccc2)c(C)c1", "note": "(centres undefined)", "fluorescence inhibition": "inactive: 6.44%"},
      {"smiles": "CC(C)c1ccc(OP(=O)(Nc2ccccn2)Oc2ccccc2F)cc1", "note": "(centres undefined)", "fluorescence inhibition": "inactive: 9.08%"},
      {"smiles": "COc1ccccc1OP(C)(=O)Nc1ccc(C)cc1", "note": "(centres undefined)", "fluorescence inhibition": "inactive: 6.87%"},
      {"smiles": "ClCCSc1nnc(-c2cccnc2)o1", "fluorescence inhibition": "inactive: 20.3%"},
      {"smiles": "COc1ccc2c(c1O)-c1c(O)c(OC)cc3c1C(C2)[N+](C)(C)CC3.O=[N+]([O-])c1cc([N+](=O)[O-])c([O-])c([N+](=O)[O-])c1[O-]", "note": "(centres undefined)", "fluorescence inhibition": "inactive: 7.15%"},
      {"smiles": "CCOC(=O)c1ccc(NP(C)(=O)Oc2ccccc2)cc1", "note": "(centres undefined)", "fluorescence inhibition": "inactive: -2.86%"},
      {"smiles": "O=[N+]([O-])c1ccc2c(c1)C=Nc1ccccc1O2", "fluorescence inhibition": "inactive: 11.6%"},
      {"smiles": "Cc1ccc2nc3c(c(C)c2c1)CC(C(Cl)Cl)S3", "note": "(centres undefined)", "fluorescence inhibition": "inactive: 3.8%"},
      {"smiles": "Cc1cccc(C)c1OP(C)(N)=O", "note": "(centres undefined)", "fluorescence inhibition": "inactive: 0.989%"},
      {"smiles": "Cc1ccc(OP(=O)(Nc2ccc([N+](=O)[O-])cn2)Oc2ccc(C)cc2)cc1", "fluorescence inhibition": "inactive: 11.5%"},
      {"smiles": "CC(C)(C)c1ccc(OP(C)(=O)Nc2ccc(SC(F)(F)F)cc2)cc1", "note": "(centres undefined)", "fluorescence inhibition": "inactive: -5.38%"},
      {"smiles": "O=[N+]([O-])c1ccc(-c2cc([N+](=O)[O-])c(O)c([N+](=O)[O-])c2)cc1", "fluorescence inhibition": "inactive: 4.22%"},
      {"smiles": "COc1cc(C(=O)NCC2(N3CCOCC3)CCCCC2)ccc1OCC(C)C", "fluorescence inhibition": "inactive: 9.09%"},
      {"smiles": "O=[As](O)(c1ccc(O)cc1)c1ccccc1O", "fluorescence inhibition": "inactive: 65.5%"},
      {"smiles": "C[As](=O)(O)c1cccc(C(=O)O)c1", "fluorescence inhibition": "inactive: 1.58%"}
    ]}
  ]
}
